Literature values as cited in patent US20050192221A1, “Methods and compositions related to plunc polypeptides” (priority 2003, published 2005).

Tested on: Legionella spp.
Parameters: unit not given beside the values
Conditions: cited from earlier work

## CC[C@H]1OC(=O)[C@H](C)[C@@H](O[C@H]2C[C@@](C)(OC)[C@@H](O)[C@H](C)O2)[C@H](C)[C@@H](O[C@@H]2O[C@H](C)C[C@H](N(C)C)[C@H]2O)[C@](C)(O)C[C@@H](C)C(=O)[C@H](C)[C@@H](O)[C@]1(C)O [ERYTHROMYCIN, erythromycin]
  MIC90: 0.25
